Test results published in paper PMC10508830 (Antiviral research, 2023).

Molecular target: NA of clade 2.3.4.4b A(H5N1) viruses lacking the flagged NA substitutions (n = 15) (Influenza A virus, UniProt Q9Q0U7)
Type: biochemical

oseltamivir carboxylate
relative potency at inhibiting NA activity: least potent | IC50 (read-out: Median IC50 A(H5N1)): 2.66 nM
